Measured values from several laboratories, pooled; numbers as filed in NIAID ChemDB.

Common to all: growth or infection tests; agent: Mycobacterium tuberculosis

MIC bound: limit read from a one-dose screen. Conditions beyond the fields shown may differ between rows. Inhibition is in % at the dose shown (toxicity tests: loss of growth or viability). Blank or dashed fields: not listed here. A number after MIC or MFC names an inhibition level or a share of isolates.

smiles	endpoint	setting	tested at	strain	method	result
CCC(C)Oc1ccc(N2C(=O)CCNC2=S)cc1	MIC	-	-	H37Rv	-	5 µg/mL
CCCCCC(CC)OC(=O)c1cnc(Cl)cn1	MIC	-	-	ATCC 27294	-	0.5 µg/mL
Cc1cc(-c2cc3c(cc2F)c(=O)c(C(=O)O)cn3C2CC2)cc(C)n1	MBC	-	-	131-4	-	1 µg/mL
COc1cccc(CSc2ncccn2)c1	inhibition	-	6.25 µg/mL	H37Rv	-	0%
CC(C)(C)C1=CC(=CC=C2C=CN(CCO)C=C2)C=C(C(C)(C)C)C1=O	MIC bound	-	-	H37Rv	BACTEC	>12.5 µg/mL
CCCOC(=O)CSc1nnc(-c2ccc([N+](=O)[O-])s2)s1	MIC	-	-	H37Rv	resazurin	0.39 µg/mL
CO[C@H]1/C=C/O[C@@]2(C)Oc3c(C)c(O)c4c(O)c(c(/C=N/N5CCN(C)CC5)c(O)c4c3C2=O)NC(=O)/C(C)=C\C=C\[C@H](C)[C@H](O)[C@@H](C)[C@@H](O)[C@@H](C)[C@H](OC(C)=O)[C@@H]1C	MIC	-	-	13268	-	>0.1 µg/mL
O=c1oc2ccccc2c(=O)n1-c1ccc(Cl)c(Cl)c1	MIC	-	-	H37Rv	-	12.3 µM
C/C(=N\NC(=S)N1CCN(C)CC1)c1nc2ncccc2[nH]1	MIC bound	-	-	H37Rv	BACTEC	>12.5 µg/mL
CCCCCOc1ccc(N2C(=O)CCNC2=S)cc1	MIC	-	-	H37Rv	-	5 µg/mL
O=C(CN1CCN(c2ccccc2)CC1)n1cnc2ccc([N+](=O)[O-])cc21	MIC bound	-	-	H37Rv	resazurin	>6.25 µg/mL
COc1cc(C2CC(c3ccc(NC(=O)C(c4ccc(Cl)cc4)C(C)C)cc3)=NN2C(C)=O)cc(OC)c1OC	inhibition	-	6.25 µg/mL	H37Rv	BACTEC	0%
Cc1cccc(CSc2nc3ccc(C)cc3[nH]2)c1	MIC	-	-	MY 332/88	-	32 µM
CC(C)C(C(=O)Nc1ccc(C2=CC(c3ccco3)C(C#N)=C(N)O2)cc1)c1ccc(Cl)cc1	inhibition	-	6.25 µg/mL	H37Rv	BACTEC	14%
Clc1ccc(C2=CSC3=NCCN23)cc1	MIC bound	-	-	H37Rv	BACTEC	>6.25 µg/mL
CCC(C)c1ccc(NC(=O)CCC(=O)Nc2ccc(C(C)CC)cc2)cc1	MIC	-	-	-	-	500 µM
Cc1ccc(C)c(Sc2ncccn2)c1	inhibition	-	6.25 µg/mL	H37Rv	-	0%
O=C(CCc1ccccc1)On1nnc2ccccc2c1=O	inhibition	-	12.5 µg/mL	H37Rv	BACTEC	0%
CN1CCC(CN2c3ccccc3Sc3ccccc32)C1	MIC	-	-	H37RV 102	-	10 µg/mL
C[C@@H]1O[C@@H](OC[C@H]2O[C@@H](Oc3c(-c4ccc(O)c(O)c4)oc4cc(O)cc(O)c4c3=O)[C@H](O)[C@@H](O)[C@@H]2O)[C@H](O)[C@H](O)[C@H]1O	MIC	-	-	H37Rv	BACTEC	>100 µg/mL
CCCCc1ccc(NC(=O)CCC(=O)Nc2ccc(CCCC)cc2)cc1	MIC	-	-	-	-	500 µM
COc1c(O)cc2oc3cc(O)c(CC=C(C)C)c(O)c3c(=O)c2c1CC=C(C)C	MIC	-	-	RMP-R	-	12.8 µg/mL
CC1COc2c(N3CCN(C)CC3)c(F)cc3c(=O)c(C(=O)O)cn1c23	MIC	-	-	484 (streptomycin isoniazid rifampicin-resistant)	-	4 µg/mL
CO[C@H]1/C=C/O[C@@]2(C)Oc3c(C)c(O)c4c(O)c(c(/C=N/N5CCN(C)CC5)c(O)c4c3C2=O)NC(=O)/C(C)=C\C=C\[C@H](C)[C@H](O)[C@@H](C)[C@@H](O)[C@@H](C)[C@H](OC(C)=O)[C@@H]1C	MIC	-	-	TN565	-	>32 µg/mL
C=CCNc1c(C)c2c3c4c1C(=O)C(=C(/C=N/N1CCN(C)CC1)C4O)NC(=O)/C(C)=C\C=C\[C@H](C)[C@H](O)[C@@H](C)[C@@H](O)[C@@H](C)[C@H](OC(C)=O)[C@H](C)[C@@H](OC)/C=C/O[C@@](C)(O2)C3=O	MIC90	-	-	-	low oxygen	>18.6 µM
O=C(Nc1ccc([N+](=O)[O-])cc1)C(=O)Nc1ccc([N+](=O)[O-])cc1	MIC	-	-	-	-	37 µM
CCCCCCCC(OC(=O)c1cnc(Cl)cn1)C(C)(C)C	MIC	-	-	ATCC35801	-	8 µg/mL
NC(=S)SC1=NNC2(C(=O)N1)c1ccccc1-c1ccccc12	inhibition	-	128 µg/mL	H37Rv	BACTEC	100%
O=c1oc2ccc(Br)cc2c(=O)n1-c1ccc(Cl)cc1	MIC	-	-	H37Rv	-	12.3 µM
COc1c(O)cc2oc(-c3ccc(O)cc3)cc(=O)c2c1O	MIC	-	-	H37Rv	BACTEC	100 µg/mL
Fc1cccc(Cl)c1Cn1cc(Cn2c3ccccc3c3ccccc32)nn1	MIC	-	-	H37Rv	agar	12.5 µg/mL
O=C1C2=C(c3ccccc31)C(c1ccc(Cl)cc1)NC(=S)N2	inhibition	-	12.5 µg/mL	H37Rv	BACTEC	75%
CC(C)C(C(=O)Nc1ccc(C2=CC(/C=C/c3ccccc3)C(C#N)=C(N)O2)cc1)c1ccc(Cl)cc1	inhibition	-	6.25 µg/mL	H37Rv	BACTEC	2%
CC[C@@H](CO)NCCN[C@@H](CC)CO	MIC	-	-	H37Rv	BACTEC	20 µg/mL
CO[C@H]1/C=C/O[C@@]2(C)Oc3c(C)c(OS(=O)(=O)c4ccc(C)cc4)c4c(c3C2=O)C(=O)C(/C=N/N2CCN(C)CC2)=C(NC(=O)/C(C)=C\C=C\[C@H](C)[C@H](O)[C@@H](C)[C@@H](O)[C@@H](C)[C@H](OC(C)=O)[C@@H]1C)C4=O	MIC90	-	-	-	resazurin	0.24 µM
CC(=O)Cn1cc(Cn2c3ccccc3c3ccccc32)nn1	MIC	-	-	H37Rv	agar	12.5 µg/mL
O=C(CCCC(=O)NNC(=O)Nc1ccc(N=Nc2ccccc2)cc1)NNC(=O)Nc1ccc(N=Nc2ccccc2)cc1	MIC	-	-	H37Rv	BACTEC	≥12.5 µg/mL
Cc1ccc2nc(SCc3ccc(C(F)(F)F)cc3)[nH]c2c1	MIC	-	-	MY 332/88	-	62 µM
COC(=O)N1c2ccccc2N(C(=O)OC)c2c1oc1ccccc1c2=O	MIC bound	-	-	H37Rv	BACTEC	≤12.5 µg/mL
CCCCOc1ccc(NC(=S)NCCC(=O)O)cc1	MIC	-	-	H37Rv	-	2.5 µg/mL
COc1cc(OC)c(-c2nc3ccc(C)cc3c(=O)o2)cc1OC	MIC bound	-	-	H37Rv	BACTEC	>12.5 µg/mL
Cc1ccc(CSc2ccncc2)cc1	MIC	-	-	H37Ra	-	>12.8 µg/mL
NC(=O)c1cc2cc(CN3CCCCC3)ccc2o1	inhibition	-	6.25 µg/mL	H37Rv	BACTEC	0%
NC(=O)c1cnccn1	inhibition	7 d	800 µg/mL	TB186	-	99.3%
Cc1ccc2nc(SCc3ccc(F)cc3)[nH]c2c1	MIC	-	-	MY 332/88	-	32 µM
O=c1oc2ccc(Br)cc2c(=O)n1-c1ccccc1	MIC	-	-	H37Rv	-	12.3 µM
C#CCn1c2ccccc2c2ccccc21	MIC	-	-	H37Rv	agar	12.5 µg/mL
COc1cc(-c2cc(=O)c3c(O)cc(O[C@@H]4O[C@H](CO[C@@H]5O[C@@H](C)[C@H](O)[C@@H](O)[C@H]5O)[C@@H](O)[C@H](O)[C@H]4O)cc3o2)ccc1O	MIC	-	-	H37Rv	BACTEC	>100 µg/mL
Cc1ccc2nc(SCc3cc(C(F)(F)F)cc(C(F)(F)F)c3)[nH]c2c1	MIC	-	-	MY 332/88	-	62 µM
CC(C)C(C(=O)Nc1ccc(C2=CC(c3ccccc3[N+](=O)[O-])C(C#N)=C(N)O2)cc1)c1ccc(Cl)cc1	inhibition	-	6.25 µg/mL	H37Rv	BACTEC	0%
CO[C@H]1/C=C/O[C@@]2(C)Oc3c(C)c(O)c4c(O)c(c(/C=N/N5C(C)CN(Cc6ccccc6)CC5C)c(O)c4c3C2=O)NC(=O)/C(C)=C\C=C\[C@H](C)[C@H](O)[C@@H](C)[C@@H](O)[C@@H](C)[C@H](OC(C)=O)[C@@H]1C	MIC	-	-	H37Rv	BACTEC	2 µg/mL
Cc1ccc2nc(SCc3c(F)cccc3Cl)[nH]c2c1	MIC	-	-	MY 332/88	-	32 µM
COc1cccc(CSc2ccccn2)c1	inhibition	-	6.25 µg/mL	H37Rv	-	0%
COc1c(O)cc2oc(-c3ccccc3)cc(=O)c2c1O	MIC	-	-	H37Rv	BACTEC	>100 µg/mL
O=[N+]([O-])c1ncn(C2OC(CO)C(O)C2O)c1Br	inhibition	-	12.5 µg/mL	H37Rv	BACTEC	17%
CC(=O)N1N=C(c2ccc(NC(=O)C(c3ccc(Cl)cc3)C(C)C)cc2)CC1c1ccc(O)cc1	inhibition	-	6.25 µg/mL	H37Rv	BACTEC	37%
CO[C@H]1/C=C/O[C@@]2(C)Oc3c(C)c(O)c4c(=O)c(c5oc6cc(N7CCN(CC(C)C)CC7)cc(=O)c6nc5c4c3=C2O)NC(=O)/C(C)=C\C=C\[C@H](C)[C@H](O)[C@@H](C)[C@@H](O)[C@@H](C)[C@H](OC(C)=O)[C@@H]1C	MIC	-	-	Kurono	-	0.004 µg/mL
O=C(CCC(=O)Nc1cccc(Cl)c1)Nc1cccc(Cl)c1	MIC	-	-	-	-	500 µM
O=C(N/N=C/C=C/c1ccccc1)C(O)C(O)C(=O)N/N=C/C=C/c1ccccc1	inhibition	-	12.5 µg/mL	H37Rv	BACTEC	-14%
Cc1ccc2nc(SCc3ccc([N+](=O)[O-])cc3)[nH]c2c1	MIC	-	-	MY 332/88	-	32 µM
CC(=O)c1c(O)c(C)c(O)c2c1OC1=CC(=O)C(C(C)=O)C(=O)C12C	MIC	-	-	CS-R	-	>12.5 µg/mL
NC1CCN(c2c(F)cc3c(=O)c(C(=O)O)cn(C4CC4)c3c2Cl)C1	MIC90	-	-	21 strains	-	1 µg/mL
CCCCCCCCNC(=S)NCCC(=O)O	MIC	-	-	H37Rv	-	1.3 µg/mL
O=c1c(O)c(-c2ccccc2)oc2cc(O)cc(O)c12	MIC	-	-	H37Rv	BACTEC	>100 µg/mL
CO[C@H]1C[C@@H]2\C=C(C)/C=C/C=C\C(=O)N[C@H](c3ccccc3)C/C=C/CC[C@H](O)CC(=O)C2=C1O	MIC	-	-	EMB-R	-	3.1 µg/mL
O=c1c(O)c(-c2ccc(O)c(O)c2)oc2cc(O)cc(O)c12	MIC	-	-	H37Rv	BACTEC	50 µg/mL
O=c1oc2ccccc2c(=O)n1-c1ccc(Cl)cc1	MIC	-	-	H37Rv	-	37 µM
CCn1c2ccccc2c2cc(-n3cc(Cn4c5ccccc5c5ccccc54)nn3)ccc21	MIC	-	-	H37Rv	agar	25 µg/mL
O=C(CCC(=O)Nc1ccc(Cl)c(Cl)c1)Nc1ccc(Cl)c(Cl)c1	MIC	-	-	-	-	250 µM
CC1CCN(SSc2nc3ccccc3s2)CC1	MIC bound	-	-	H37Rv	BACTEC	≤12.5 µg/mL
Cc1c(CSc2nc(=O)[nH]c3nc[nH]c23)cccc1[N+](=O)[O-]	MIC90	-	-	H37Rv	-	>6.25 µg/mL
O=C(OC[C@H]1O[C@@H](n2nc(N3CCOCC3)c(=O)[nH]c2=O)[C@H](OC(=O)c2ccccc2)[C@@H]1OC(=O)c1ccccc1)c1ccccc1	MIC bound	-	-	H37Rv	resazurin	>6.25 µg/mL
Cc1ccc2nc(SCc3cccc([N+](=O)[O-])c3)[nH]c2c1	MIC	-	-	MY 332/88	-	62 µM
CNc1c(C)c2c3c4c1C(=O)C(=C(/C=N/N1CCN(C)CC1)C4O)NC(=O)/C(C)=C\C=C\[C@H](C)[C@H](O)[C@@H](C)[C@@H](O)[C@@H](C)[C@H](OC(C)=O)[C@H](C)[C@@H](OC)/C=C/O[C@@](C)(O2)C3=O	MIC90	-	-	-	low oxygen	>19.1 µM
Cc1nc2ccc(NC3OC(CO)C(O)C(O)C3O)cc2c(=O)n1-c1ccccc1	inhibition	-	6.25 µg/mL	H37Rv	resazurin	2%
CCCCCCCCN1C(=O)CCNC1=S	MIC	-	-	H37Rv	-	5 µg/mL
Cc1ccccc1CSc1ncccn1	MIC90	-	-	H37Rv	-	>6.25 µg/mL
Clc1nc(Nc2nc3ccccc3[nH]2)nc(Cl)c1-c1ccccc1	MIC bound	-	-	H37Rv	BACTEC	<6.25 µg/mL
Cc1cccc(CSc2ccccn2)c1	MIC	-	-	H37Ra	-	>12.8 µg/mL
O=c1oc2ccccc2c(=O)n1-c1ccc(C2CCCCC2)cc1	MIC	-	-	H37Rv	-	>1000 µM
O=c1nc(SCc2ccc(F)cc2)c2[nH]cnc2[nH]1	MIC	-	-	H37Ra	-	>12.8 µg/mL
CO/N=C(/C(=O)N[C@@H]1C(=O)N2C(C(=O)[O-])=C(C[N+]3(C)CCCC3)CS[C@H]12)c1csc(N)n1	inhibition	-	32 µg/mL	13 strains	-	54%

7 of the rows above, restated:

| smiles | endpoint | setting | tested at | strain | method | result |
|---|---|---|---|---|---|---|
| CCCCCC(CC)OC(=O)c1cnc(Cl)cn1 | MIC | - | - | ATCC 27294 | - | 0.5 µg/mL |
| CC1CCN(SSc2nc3ccccc3s2)CC1 | MIC bound | - | - | H37Rv | BACTEC | ≤12.5 µg/mL |
| CO[C@H]1/C=C/O[C@@]2(C)Oc3c(C)c(O)c4c(O)c(c(/C=N/N5CCN(C)CC5)c(O)c4c3C2=O)NC(=O)/C(C)=C\C=C\[C@H](C)[C@H](O)[C@@H](C)[C@@H](O)[C@@H](C)[C@H](OC(C)=O)[C@@H]1C | MIC | - | - | 13268 | - | >0.1 µg/mL |
| COc1cc(OC)c(-c2nc3ccc(C)cc3c(=O)o2)cc1OC | MIC bound | - | - | H37Rv | BACTEC | >12.5 µg/mL |
| NC(=O)c1cnccn1 | inhibition | 7 d | 800 µg/mL | TB186 | - | 99.3% |
| O=c1nc(SCc2ccc(F)cc2)c2[nH]cnc2[nH]1 | MIC | - | - | H37Ra | - | >12.8 µg/mL |
| CO[C@H]1/C=C/O[C@@]2(C)Oc3c(C)c(O)c4c(=O)c(c5oc6cc(N7CCN(CC(C)C)CC7)cc(=O)c6nc5c4c3=C2O)NC(=O)/C(C)=C\C=C\[C@H](C)[C@H](O)[C@@H](C)[C@@H](O)[C@@H](C)[C@H](OC(C)=O)[C@@H]1C | MIC | - | - | Kurono | - | 0.004 µg/mL |